Measured values from several laboratories, pooled; numbers as filed in NIAID ChemDB.

Common to all: tests in culture; species: HIV-1

Rows are shuffled and stem from different studies.

COc1cc(OC)nc(N2C(=O)CSC2c2c(Cl)cccc2[N+](=O)[O-])n1 ; strain: N119 ; cells: TZM-bl ; endpoint: EC50 ; read by: luciferase ; result: 1.22 µg/mL
CCn1c(=O)c(C)cn([C@@H]2O[C@H](CO[Si](C)(C)C(C)(C)C)C3(OS(=O)(=O)C=C3N)[C@H]2O[Si](C)(C)C(C)(C)C)c1=O ; strain: HXB2 (RT E138A S162C E169D T200A L214F) Clinical isolate ; cells: CEM ; mutations: RT-E138A S162C E169D T200A L214F ; endpoint: EC50 ; read by: syncytia ; result: 32.4 µM
NC1CCC(CN2CC(=O)N3C[C@@H](N(CCOc4ccccc4)S(=O)(=O)c4cccc(F)c4)C[C@H]3C2=O)CC1 ; strain: NL4-3 ; cells: HeLaP4 ; endpoint: EC50 ; read by: β-galactosidase ; result: 0.241 µM
N#Cc1ccc(Nc2nc(Oc3c(Br)cc(Br)cc3Br)ncc2[N+](=O)[O-])cc1 ; strain: IIIB ; cells: MT-4 ; endpoint: EC50 ; read by: MTT ; result: 3.89 µM
Cc1cn([C@@H]2O[C@H](CO[Si](C)(C)C(C)(C)C)[C@@]3(OS(=O)(=O)C=C3N)[C@H]2O[Si](C)(C)C(C)(C)C)c(=O)[nH]c1=O ; endpoint: EC50 ; result: 0.05 µM
Cc1ccnc2c1NC(=O)c1cccnc1N2C1CC1 ; strain: IIIB ; cells: PBL (activated) + PBL ; endpoint: EC50 ; read by: RT activity ; result: <0.3 µM
Cc1ccnc2c1NC(=O)c1cccnc1N2C1CC1 ; strain: IIIB ; cells: CEM ; mutations: RT-C181I ; endpoint: EC50 ; read by: syncytia ; result: >75 µM
Cc1csc(NC(=S)N[C@H](C)c2ccccc2)n1 ; strain: RT-Y181C K103N A17 variant NNRTI-resistant ; cells: PBMC ; endpoint: EC50 ; read by: p24 ; result: 0.19 µM
CC(C)=CCN1Cc2cc(Cl)cc3[nH]c(=S)n(c23)C[C@@H]1C ; strain: Recombinant mutant ; cells: MT-4 ; mutations: RT-A98S E138A ; endpoint: EC50 ; read by: cytopathic effect / MTT ; result: 0.199 µM
CC(C)=CCOc1cc(NC(=S)c2ccsc2C)ccc1Cl ; endpoint: EC50 ; result: 0.005 µM
CCc1c([Se]c2ccccc2)n(COCc2ccccc2)c(=O)[nH]c1=O ; strain: IIIB ; cells: MT-2 ; endpoint: EC50 ; read by: cytopathic effect ; result: 0.02 ± 0.005 µM
Nc1ccn([C@H]2C=C[C@@H](CO)O2)c(=O)n1 ; strain: LAV ; cells: ATH8 ; endpoint: EC50 ; read by: cytopathic effect ; result: <200 µM
CN1CCOCC1c1nc(C(=O)NCCc2ccccc2)c(O)c(=O)n1C ; strain: IIIB ; cells: MT-4 ; endpoint: EC95 ; conditions: 10% FBS ; read by: p24 / ELISA ; result: >8 µM
Nc1ccn([C@H]2CC[C@@H](CO)O2)c(=O)n1 ; strain: Recombinant wild type ; cells: MT-4 ; endpoint: EC50 ; read by: cytopathic effect / MTT ; result: 4.005 µM
CC(C)=CCN1Cc2cccc3[nH]c(=S)n(c23)C[C@@H]1C ; strain: Nevirapine-resistant ; cells: MT-2 ; endpoint: EC50 ; read by: cytopathic effect ; result: 0.7 ± 0.1 µM
Cc1cn([C@H]2C=C[C@@H](CO)O2)c(=O)[nH]c1=O ; strain: BZ X4 ; cells: PBL (resting) + PBL ; endpoint: EC50 ; read by: RT activity ; result: >4 µM
CN1CCS(=O)CC1c1nc(C(=O)NCc2ccc(F)cc2)c(O)c(=O)n1C ; strain: IIIB ; cells: MT-4 ; endpoint: EC95 ; conditions: 10% FBS ; read by: p24 / ELISA ; result: >1 µM
CCCCCCCCCCCCCC(=O)OC[C@H](COP(=O)(O)OP(=O)(O)OC[C@@H]1CC[C@H](n2cc(C)c(=O)[nH]c2=O)O1)OC(=O)CCCCCCCCCCCCC ; strain: A018A Clinical isolate ; cells: HT4 + HT4-6C ; endpoint: EC50 ; read by: plaque count ; result: 6 µM
Cc1cn([C@H]2C[C@H](F)[C@@H](COC(=O)CCCCCCCCCCCN=[N+]=[N-])O2)c(=O)[nH]c1=O ; cells: CEM + CEM-SS ; endpoint: EC50 ; read by: cytopathic effect ; result: 0.0028 µM
Cc1cn([C@H]2C[C@H](N=[N+]=[N-])[C@@H](CO)O2)c(=O)[nH]c1=O ; strain: NDR500 ; cells: MT-4 ; endpoint: EC50 ; read by: cytopathic effect / trypan blue ; result: 0.003 µM
CC(C)(C)C(=O)c1sc(C(=O)NCc2ccccc2)c(O)c1O ; strain: TH92001 X4 CLADE E ; cells: PBMC ; endpoint: EC50 ; read by: p24 ; result: 0.2 µM
Cn1c(C2COCCN2C(=O)OC(C)(C)C)nc(C(=O)NCc2ccc(F)cc2)c(O)c1=O ; strain: IIIB ; cells: MT-4 ; endpoint: EC95 ; conditions: 50% human serum ; read by: p24 / ELISA ; result: >1 µM
CCCN(C)C(=O)Oc1nsnc1-c1c(Cl)ccc(N)c1Cl ; strain: IIIB ; cells: U-937 ; endpoint: EC50 ; read by: cytopathic effect / MTT ; result: 0.0069 µM
Cc1ncnc(C)c1C(=O)N1CCC(C)(N2CCN([C@@H](Cc3ccccc3)c3ccc(C(F)(F)F)cc3)[C@@H](C)C2)CC1 ; strain: JRFL Clinical isolates ; cells: PBMC ; endpoint: EC90 ; result: 0.00019 µM
COCCCCCCCCCCCC(=O)OC[C@H]1O[C@@H](n2cc(C)c(=O)[nH]c2=O)C[C@@H]1F ; cells: CEM + CEM-SS ; endpoint: EC50 ; read by: cytopathic effect ; result: 0.0038 µM
COC(=O)N[C@H](C(=O)N[C@@H](Cc1ccccc1)[C@@H](O)CN(Cc1ccc(-c2ccccn2)cc1)NC(=O)[C@@H](NC(=O)OC)C(C)(C)C)C(C)(C)C ; strain: BRU ; cells: MT-2 ; endpoint: EC50 ; result: 0.00275 µM
CC(=O)c1ccc(C)cc1NC(C(N)=O)c1c(Cl)cccc1Cl ; strain: HE ; cells: MT-4 ; endpoint: EC50 ; read by: cytopathic effect / MTT ; result: 0.037 µM
Cc1cc(C)nc(N2C(=O)CSC2c2c(Cl)cccc2[N+](=O)[O-])c1 ; strain: VB51 ; cells: PBMC ; endpoint: EC50 ; read by: p24 / ELISA ; result: 0.004 µg/mL
Fc1cccc(F)c1C1SCc2nc3ccccc3n21 ; strain: IIIB ; cells: CEM ; endpoint: EC50 ; read by: cytopathic effect / MTT ; result: 1.1 µM
O=c1[nH]cnc2c1ncn2[C@H]1CC[C@@H](CO)O1 ; strain: BZ X4 ; cells: PBL (activated) + PBL ; endpoint: EC50 ; read by: RT activity ; result: 9 µM
CCOCn1c(Sc2ccccc2)c(CC)c(=O)[nH]c1=O ; strain: IIIB ; cells: CEM ; mutations: RT-Y181C ; endpoint: EC50 ; read by: syncytia ; result: 0.72 µM
Cc1cn([C@H]2C[C@H](N=[N+]=[N-])[C@@H](CO)O2)c(=O)[nH]c1=O ; cells: CEM + CEM-SS ; endpoint: EC50 ; read by: cytopathic effect ; result: 0.01 µM
Nc1nc(NC2CC2)c2ncn([C@H]3C=C[C@@H](CO)C3)c2n1 ; cells: MT-2 ; mutations: RT-Q151M V75I ; endpoint: EC50 ; read by: cytopathic effect / MTT ; result: >20 µM
CC(C)=CCN1Cc2cc(Cl)cc3[nH]c(=S)n(c23)C[C@@H]1C ; strain: IIIB ; cells: CEM ; mutations: RT-E138K ; endpoint: EC50 ; read by: syncytia ; result: 0.25 µM
CCCc1c([Se]c2ccccc2)n(COCCO)c(=O)[nH]c1=O ; strain: Cat #3 strain ; cells: MT-2 ; endpoint: EC90 ; read by: p24 ; result: 8.8 µM
Cc1cn([C@H]2C=C[C@@H](CO)O2)c(=O)[nH]c1=O ; strain: RT Δ.67 T69G K103N ; cells: MT-2 ; mutations: 1 (Δ.67+T69G+K103N) ; endpoint: EC50 ; read by: p24 ; result: 0.219 µM
Cc1cn([C@H]2CC[C@@H](CO)O2)c(=O)[nH]c1=O ; strain: A018A Clinical isolate ; cells: HT4 + HT4-6C ; endpoint: EC50 ; read by: plaque count ; result: 220 µM
CCCN(C)C(=O)Oc1nsnc1-c1c(Cl)ccc(C(N)=O)c1Cl ; strain: IIIB ; cells: MT-4 ; endpoint: EC50 ; read by: cytopathic effect / MTT ; result: 2.9 µM
Cc1cn([C@H]2C[C@H](F)[C@@H](CO)O2)c(=O)[nH]c1=O ; cells: CEM + CEM-SS ; endpoint: EC50 ; read by: cytopathic effect ; result: 0.0025 µM
Cc1ccnc2c1NC(=O)c1cccnc1N2C1CC1 ; strain: TIBO-RS ; cells: MT-2 ; endpoint: EC50 ; read by: cytopathic effect ; result: 4.2 ± 2.2 µM
C[C@@H]1O[C@@H](OC[C@H]2O[C@@H](Oc3c(-c4ccc(O)c(O)c4)oc4cc(O)cc(O)c4c3=O)[C@H](O)[C@@H](O)[C@@H]2O)[C@H](O)[C@H](O)[C@H]1O ; strain: IIIB X4 ; cells: C8166 ; endpoint: EC50 ; read by: syncytia ; result: >330 µM
Nc1ccn([C@H]2CC[C@@H](CO)O2)c(=O)n1 ; cells: MT-2 ; mutations: RT-delta67 T69G ; endpoint: EC50 ; read by: p24 ; result: 0.083 µM
CCOCn1c(Sc2ccccc2)c(CC)c(=O)[nH]c1=S ; strain: IIIB ; cells: CEM ; mutations: RT-C181I ; endpoint: EC50 ; read by: syncytia ; result: 0.78 µM
O=C1CCCN1CCCN1CC(=O)N2CC(N(CCOc3ccccc3)S(=O)(=O)c3cccc(F)c3)C[C@H]2C1=O ; strain: NL4-3 ; cells: HeLaP4 ; endpoint: EC50 ; read by: β-galactosidase ; result: 0.248 µM
CCC[C@@H](c1ccc(C(F)(F)F)cc1)N1CCN(C2(C)CCN(C(=O)c3c(C)ncnc3C)CC2)C[C@@H]1C ; strain: JV1083 Clinical isolates ; cells: PBMC ; endpoint: EC50 ; result: <0.00027 µM
CN1C[C@H](OCc2ccccc2)C[C@H]1c1nc(C(=O)NCc2ccc(F)cc2)c(O)c(=O)n1C ; strain: IIIB ; cells: MT-4 ; endpoint: EC95 ; conditions: 10% FBS ; read by: p24 / ELISA ; result: <0.08 µM
O=c1[nH]cnc2c1ncn2[C@H]1CC[C@@H](CO)O1 ; strain: IIIB Recombinant wild type ; cells: MT-4 ; endpoint: EC50 ; read by: cytopathic effect / MTT ; result: 1.799 µM
Cc1cn([C@H]2C[C@H](N=[N+]=[N-])[C@@H](CO)O2)c(=O)[nH]c1=O ; strain: NL4-3 ; cells: MT-2 ; mutations: RT-V75T ; endpoint: EC50 ; read by: p24 ; result: 0.006 µM
CC(C)Nc1cccnc1N1CCN(C(=O)c2cc3ccccc3[nH]2)CC1 ; strain: IIIB ; cells: CEM ; mutations: RT-C181I ; endpoint: EC50 ; read by: syncytia ; result: 7.6 µM
CC(=O)c1ccc(C)cc1NC(C(N)=O)c1c(Cl)cccc1Cl ; strain: UC781-RS(RT-Y181C ; mutations: RT-Y181C ; endpoint: EC50 ; result: >1 µM
Cc1cc(C=O)cc(C)c1Oc1ncc([N+](=O)[O-])c(Nc2ccc(C#N)cc2)n1 ; strain: IIIB ; cells: MT-4 ; endpoint: EC50 ; read by: MTT ; result: 0.6164 µM
O=C(O)P(=O)(O)O ; strain: 7898 CLADE B CLADE B ; cells: PBMC ; endpoint: EC50 ; read by: p24 ; result: 5 µM
COc1ccc2c(c1)N(C(=O)OC(C)C)[C@@H](CSC)C(=S)N2 ; strain: IIIB Recombinant wild type ; cells: MT-4 ; endpoint: EC50 ; read by: cytopathic effect / MTT ; result: 0.0005 µM
N#Cc1ccc(Nc2nc(Oc3c(Cl)cccc3Cl)ncc2[N+](=O)[O-])cc1 ; strain: RES056 ; cells: MT-4 ; endpoint: EC50 ; read by: MTT ; result: >207 µM
COc1ccccc1C(=O)Nc1ccc(Cl)c(C(=O)OC(C)C)c1 ; endpoint: EC50 ; result: 1.3 µM
Cc1ccc(CCNC(=S)Nc2ccc(Br)cn2)cc1 ; strain: RT-Y181C A17 NNRTI-resistant ; cells: PBMC ; endpoint: EC50 ; read by: p24 ; result: 0.07 µM
CC(=O)Nc1cnc(Oc2c(C)cc(Br)cc2C)nc1Nc1ccc(C#N)cc1 ; strain: IIIB ; cells: MT-4 ; endpoint: EC50 ; read by: MTT ; result: 32.5 µM
CC(C)=CCOc1cc(NC(=S)c2ccoc2C)ccc1Cl ; strain: SK1 ; cells: CEM + CEM-SS ; endpoint: EC50 ; result: 0.006 µM
Nc1ccn([C@H]2CC[C@@H](CO)O2)c(=O)n1 ; strain: LAV ; cells: ATH8 ; endpoint: EC50 ; read by: cytopathic effect ; result: <0.5 µM
Fc1cccc(F)c1[C@H]1SCc2nc3ccccc3n21 ; strain: RF ; cells: MT-4 ; endpoint: EC50 ; read by: cytopathic effect / MTT ; result: 0.1 µg/mL
Cc1cn([C@H]2C[C@H](N=[N+]=[N-])[C@@H](CO)O2)c(=O)[nH]c1=O ; cells: MT-2 ; mutations: RT-Q151M ; endpoint: EC50 ; read by: cytopathic effect / MTT ; result: 2.4 µM

Repeating the first 6 entries:

smiles | strain | cells | mutations | endpoint | conditions | read by | result
COc1cc(OC)nc(N2C(=O)CSC2c2c(Cl)cccc2[N+](=O)[O-])n1 | N119 | TZM-bl | - | EC50 | - | luciferase | 1.22 µg/mL
CCn1c(=O)c(C)cn([C@@H]2O[C@H](CO[Si](C)(C)C(C)(C)C)C3(OS(=O)(=O)C=C3N)[C@H]2O[Si](C)(C)C(C)(C)C)c1=O | HXB2 (RT E138A S162C E169D T200A L214F) Clinical isolate | CEM | RT-E138A S162C E169D T200A L214F | EC50 | - | syncytia | 32.4 µM
NC1CCC(CN2CC(=O)N3C[C@@H](N(CCOc4ccccc4)S(=O)(=O)c4cccc(F)c4)C[C@H]3C2=O)CC1 | NL4-3 | HeLaP4 | - | EC50 | - | β-galactosidase | 0.241 µM
N#Cc1ccc(Nc2nc(Oc3c(Br)cc(Br)cc3Br)ncc2[N+](=O)[O-])cc1 | IIIB | MT-4 | - | EC50 | - | MTT | 3.89 µM
Cc1cn([C@@H]2O[C@H](CO[Si](C)(C)C(C)(C)C)[C@@]3(OS(=O)(=O)C=C3N)[C@H]2O[Si](C)(C)C(C)(C)C)c(=O)[nH]c1=O | - | - | - | EC50 | - | - | 0.05 µM
Cc1ccnc2c1NC(=O)c1cccnc1N2C1CC1 | IIIB | PBL (activated) + PBL | - | EC50 | - | RT activity | <0.3 µM

ECn is the concentration giving n% inhibition of infection, replication or growth. Blank or dashed fields: not listed here.